How the values were obtained:
[1] = target: JR-FLan/KI812.7 Env (HIV-1 (JR-FL) | HIV-1 (CRF01_AE, individual KI812))
[2] = target: JR-FLan/KI812.7 Env M425K (HIV-1 (JR-FL) | HIV-1 (CRF01_AE, individual KI812))
[3] = target: JR-FLan/KI812.7 Env N183K (HIV-1 (JR-FL) | HIV-1 (CRF01_AE, individual KI812))
[4] = target: JR-FLan/KI812.7 Env N183K/M425K (HIV-1 (JR-FL) | HIV-1 (CRF01_AE, individual KI812))
[5] = target: JR-FLan/KI812.7 Env N183K/N273D (HIV-1 (JR-FL) | HIV-1 (CRF01_AE, individual KI812))
[6] = target: JR-FLan/KI812.7 Env N183K/N273D/M425K (HIV-1 (JR-FL) | HIV-1 (CRF01_AE, individual KI812))
[7] = target: JR-FLan/KI812.7 Env N273D (HIV-1 (JR-FL) | HIV-1 (CRF01_AE, individual KI812))
[8] = target: JR-FLan/KI812.7 Env N273D/M425K (HIV-1 (JR-FL) | HIV-1 (CRF01_AE, individual KI812))

recombinant human sCD4 (from UniProt P01730 26-396) (receptor)
EC50 of sCD4 for 50% inhibition of entry of luciferase-reporter pseudotyped virus into NP2/CD4/CXCR4/CCR5 cells (single-round entry assay, 48 h) [1]: > 10 µg/mL | EC50 of sCD4 for 50% inhibition of entry of luciferase-reporter pseudotyped virus into NP2/CD4/CXCR4/CCR5 cells (single-round entry assay, 48 h) [2]: 0.42 µg/mL | EC50 of sCD4 for 50% inhibition of entry of luciferase-reporter pseudotyped virus into NP2/CD4/CXCR4/CCR5 cells (single-round entry assay, 48 h) [3]: > 10 µg/mL | EC50 of sCD4 for 50% inhibition of entry of luciferase-reporter pseudotyped virus into NP2/CD4/CXCR4/CCR5 cells (single-round entry assay, 48 h) [4]: 0.35 µg/mL | EC50 of sCD4 for 50% inhibition of entry of luciferase-reporter pseudotyped virus into NP2/CD4/CXCR4/CCR5 cells (single-round entry assay, 48 h) [5]: 8.6 µg/mL | EC50 of sCD4 for 50% inhibition of entry of luciferase-reporter pseudotyped virus into NP2/CD4/CXCR4/CCR5 cells (single-round entry assay, 48 h) [6]: 0.22 µg/mL | EC50 of sCD4 for 50% inhibition of entry of luciferase-reporter pseudotyped virus into NP2/CD4/CXCR4/CCR5 cells (single-round entry assay, 48 h) [7]: 6.9 µg/mL | EC50 of sCD4 for 50% inhibition of entry of luciferase-reporter pseudotyped virus into NP2/CD4/CXCR4/CCR5 cells (single-round entry assay, 48 h) [8]: 0.14 µg/mL
